Measurements: the supplement of paper PMC3578754

Tests used:
Experiment in all cases: fold change of IC50 against reference virus; higher = more resistant; Cell-culture drug susceptibility tests of virus bearing the protease of each isolate, gathered from many studies.
saquinavir = compound: CC(C)(C)NC(=O)[C@@H]1C[C@@H]2CCCC[C@@H]2CN1C[C@@H](O)[C@H](Cc1ccccc1)NC(=O)[C@H](CC(N)=O)NC(=O)c1ccc2ccccc2n1 [saquinavir]
ritonavir = compound: CC(C)c1nc(CN(C)C(=O)N[C@H](C(=O)N[C@@H](Cc2ccccc2)C[C@H](O)[C@H](Cc2ccccc2)NC(=O)OCc2cncs2)C(C)C)cs1 [ritonavir]
indinavir = compound: CC(C)(C)NC(=O)[C@@H]1CN(Cc2cccnc2)CCN1C[C@@H](O)C[C@@H](Cc1ccccc1)C(=O)N[C@H]1c2ccccc2C[C@H]1O [indinavir]
atazanavir = compound: COC(=O)N[C@H](C(=O)N[C@@H](Cc1ccccc1)[C@@H](O)CN(Cc1ccc(-c2ccccn2)cc1)NC(=O)[C@@H](NC(=O)OC)C(C)(C)C)C(C)(C)C [atazanavir]
nelfinavir = compound: Cc1c(O)cccc1C(=O)N[C@@H](CSc1ccccc1)[C@H](O)CN1C[C@H]2CCCC[C@H]2C[C@H]1C(=O)NC(C)(C)C [nelfinavir]

Test System | fold change of IC50 against reference virus (saquinavir) | fold change of IC50 against reference virus (ritonavir) | fold change of IC50 against reference virus (indinavir) | fold change of IC50 against reference virus (atazanavir) | fold change of IC50 against reference virus (nelfinavir)
HIV-1 isolate 21 (protease changes: V32I M46I R57G I84V L89M, study 43) | 2 | 71 | 9 | 96 | 8
HIV-1 isolate 23 (protease changes: L10F I13V K14R D30N L33I E35D M36I R41K I64V N88D, study 115) | 2.7 | 1.8 | 2.6 | 7.4 | 82
HIV-1 isolate 57 (protease changes: Q2V M36I L63P, study 115) | 0.9 | 1.1 | 0.9 | 0.9 | 1.1
HIV-1 isolate 92 (protease changes: L19I R41K I50L A71V T74S, study 115) | 0.5 | 0.2 | 0.4 | 7.9 | 0.8
HIV-1 isolate 102 (protease changes: K14R I15V D30N L33F R41K D60E Q61N L63T N88D, study 115) | 0.6 | 0.7 | 0.4 | 0.7 | 12
HIV-1 isolate 123 (protease changes: A71V, study 115) |  | 2 | 1.2 | 0.9 | 1.4
HIV-1 isolate 147 (protease changes: R8Q L10F T12A I13V D30N E35D M36I M46V I62V L63P I64L A71T V77I N88D, study 115) |  | 0.9 | 1.2 | 1.5 | 31
HIV-1 isolate 162 (protease changes: K45R I50L L63P A71V G73S V77I I93L, study 115) | 0.3 | 0.1 | 0.5 | 9.9 | 1
HIV-1 isolate 173 (protease changes: I50L A71V, study 115) |  | 0.2 | 0.3 | 10 | 0.3
HIV-1 isolate 248 (protease changes: K45R I50L L63P I64L V77I I93L, study 115) | 0.1 | 0.1 | 0.3 | 5.2 | 0.3
HIV-1 isolate 263 (protease changes: I13V D30N E35D M36I I62V L63P I64V A71T V75I, study 115) | 0.5 | 0.6 | 1.1 | 1.9 | 25
HIV-1 isolate 279 (protease changes: L10I I62V L63P G73T L90M I93L, study 24) | 11 | 11 | 17 | 12 | 17
HIV-1 isolate 296 (protease changes: R41K I54V L63P A71V V82A I93L, study 24) | 3 | 33 | 15 | 6 | 17
HIV-1 isolate 305 (protease changes: L63P V77I I93L, study 115) | 0.5 | 0.7 | 0.8 | 0.6 | 1.1
HIV-1 isolate 316 (protease changes: L10F I13V I15R D30N L33I E35D M36I R41K L63P I64V N88D, study 115) | 1.1 | 1.1 | 1.4 | 1.5 | 45
HIV-1 isolate 338 (protease changes: L10F I13V N37D L63P V77I N88S I93L, study 115) | 1.3 | 0.8 | 4.2 | 6 | 7.7
HIV-1 isolate 342 (protease changes: K45L L63P I64L I72V V77I I93L, study 115) | 0.4 | 0.5 | 0.6 | 0.6 | 1
HIV-1 isolate 348 (protease changes: V32I M46I I47V V82I, study 43) | 1 | 16 | 11 | 2 | 11
HIV-1 isolate 383 (protease changes: L10R D30N E35D M36I N37D K45R I54L L63P H69Q A71V N88D L90M I93L, study 115) | 21 | 10 | 5.2 | 14 | 140
HIV-1 isolate 438 (protease changes: R57G, study 108) | 1 |  | 1 | 1 | 1
HIV-1 isolate 455 (protease changes: V32I M46I V82F I84V, study 43) | 1 | 72 | 24 | 9 | 8
HIV-1 isolate 457 (protease changes: L10F T12S L19Q K20R D30N L63P V77I N88D L89I, study 115) | 2 | 1.1 | 1.9 | 2.3 | 46
HIV-1 isolate 469 (protease changes: I50L A71V, study 115) |  | 0.2 | 0.1 | 6 | 0.2
HIV-1 isolate 500 (protease changes: G16E E35D I62V L63S K70R, study 115) | 0.3 | 0.6 | 0.4 | 0.5 | 0.5
HIV-1 isolate 515 (protease changes: L10I L63A I93L, study 115) | 0.7 | 0.6 | 0.7 | 0.7 | 0.8

Test System | fold change of IC50 against reference virus (saquinavir) | fold change of IC50 against reference virus (ritonavir) | fold change of IC50 against reference virus (indinavir) | fold change of IC50 against reference virus (atazanavir) | fold change of IC50 against reference virus (nelfinavir)
HIV-1 isolate 530 (protease changes: L10Y I50L L63P A71V N88S, study 43) | 2 | 0.1 | 2 | 93 | 5
HIV-1 isolate 535 (protease changes: D30N E35D M36I N37D L63P H69Q A71V N88D L90M I93L, study 115) | 5.6 | 4.3 | 3.4 | 4 | 91
HIV-1 isolate 536 (protease changes: L10Y I50L A71V N88S, study 43) | 1 |  | 1 | 36 | 1
HIV-1 isolate 568 (protease changes: I50L, study 115) |  | 0.1 | 0.1 | 2 | 0.1
HIV-1 isolate 575 (protease changes: L10I G48V R57G L90M, study 43) | 8 | 2 | 3 | 1 | 2
HIV-1 isolate 603 (protease changes: E35D M36I R41K I50L R57K I62V L63P I93L, study 115) | 0.3 | 0.2 | 0.4 | 8.8 | 0.9
HIV-1 isolate 627 (protease changes: V32I M46I R57G I84V, study 43) | 1 | 24 | 2 | 6 | 2
HIV-1 isolate 631 (protease changes: none, study 43) | 1 | 1 | 1 | 1 | 1
HIV-1 isolate 633 (protease changes: D30N N37D L63P H69Y V77I N88D I93L, study 15) |  | 0.6 | 1 | 1.3 | 
HIV-1 isolate 640 (protease changes: L10I I54V L63P A71V V77I V82A I93L, study 24) | 4 | 33 | 13 | 6 | 15
HIV-1 isolate 743 (protease changes: I50L, study 115) |  | 0.3 | 0.1 | 3 | 0.1
HIV-1 isolate 813 (protease changes: none, study 115) |  | 1 | 1 | 1 | 1
HIV-1 isolate 867 (protease changes: L10F I13V D30N R41K I50L I62V L63P K70R A71T N88D I93L, study 115) |  | 0.1 | 0.1 | 22 | 6
HIV-1 isolate 971 (protease changes: L10I G16A R41K G48V I54T Q61H I62V L63Q A71V T74A V77I V82A I93L, study 108) | 63 |  | 66 | 33 | 22
HIV-1 isolate 1017 (protease changes: K20I M36I M46I Q61E I62V L63P A71V I72M V82F L90M I93L, study 65) | 1.5 | 100 |  | 15 | 56
HIV-1 isolate 1020 (protease changes: A71V, study 115) |  | 0.7 | 1 | 2 | 1.3
HIV-1 isolate 1028 (protease changes: L10I E35D M36V K43T M46L I54V D60E I62V L63P A71V V82A I84V L90M, study 108) | 43 |  | 63 | 80 | 47
HIV-1 isolate 1084 (protease changes: I50L A71V, study 115) |  | 0.2 | 0.3 | 6 | 0.3
HIV-1 isolate 1158 (protease changes: I50L, study 115) |  | 0.1 | 0.1 | 5.4 | 0.2
HIV-1 isolate 1197 (protease changes: L10I I13V K14R L19I K20R V32I E35D M36I N37Q K43P M46I F53L I54M R57K L63P A71V G73S V77I I85V L89V L90M, study 101) | 59 | 158 |  | 108 | 76
HIV-1 isolate 1236 (protease changes: L10I I13V R41K, study 115) |  | 1 | 1 | 1 | 1
HIV-1 isolate 1317 (protease changes: R57G, study 115) |  | 1 | 1 | 1 | 1
HIV-1 isolate 1599 (protease changes: L10F I13V L23I D30N R41K I62V L63P K70R A71T N88D I93L, study 115) |  | 0.8 | 2.3 | 7.6 | 142
HIV-1 isolate 1618 (protease changes: L10I I13V K14R L19I E35D N37Q R57K L63P V77I, study 101) | 0.8 | 1.4 |  | 0.9 | 1.7
HIV-1 isolate 1634 (protease changes: A71V, study 115) |  | 0.5 | 0.6 | 2.4 | 1.1

Fold change is the IC50 on the isolate divided by the IC50 on a reference virus; 1 = unchanged, higher = more resistant. Changes are given against the subtype B consensus. No active / inactive call. The values were gathered from many studies (numbered anew) with different assays, which the source does not name. Most viruses are clinical isolates; some are laboratory strains or clones with known resistance changes. Isolates with mixed residues are left out; stretches that were not sequenced show no change. Round top values that many isolates share are read here as limits; other very high values and 0.1 may be limits too. The protease changes I3V and N37S, insertions and deletions cannot be read from the source.
